Measured values from several laboratories, pooled; numbers as filed in NIAID ChemDB.

Common to all: whole-cell or culture tests; organism: Candida albicans; endpoint: zone

Lines come from different laboratories, so protocols vary. Zones are inhibition diameters on agar. An empty or dashed field is not shown.

| structure | strain or isolate | method | tested at | result |
|---|---|---|---|---|
| Fc1cccc(F)c1/C=N/n1c(C23CC4CC(CC(C4)C2)C3)nn(CN2CCN(Cc3ccccc3)CC2)c1=S | IFO 3007 | agar diffusion | 200 µg/disc | 17 mm |
| COc1ccc(C2CC(=O)C3=C(C2)OC2=C(C(=O)CC(c4ccc(OC)c(OC)c4)C2)C3c2cccc(C3C4=C(CC(c5ccc(OC)c(OC)c5)CC4=O)OC4=C3C(=O)CC(c3ccc(OC)c(OC)c3)C4)c2)cc1OC | ATCC 10231 | agar diffusion | 40 µg/disc | 7 mm |
| Nc1nc2nc(-c3ccccn3)c(-c3ccccn3)nc2c(=O)[nH]1 | - | - | 500 mg/mL | 40 mm |
| C=CC(C)(C)c1cc(C2CC(=O)c3c(cc(O)c(CC=C(C)C)c3O)O2)c(O)cc1O | hemoculture isolate 37203 | agar diffusion / agar | 2 mg/mL | 12 mm |
| O=c1ncc2nc(-c3ccccn3)c(-c3ccccn3)nc2[nH]1 | - | - | 500 mg/mL | 30 mm |
| NS(=O)(=O)c1ccc(-n2nc(-c3ccc(Cl)cc3)c3c(C(F)(F)F)cc(-c4ccc(F)cc4)nc32)cc1 | MTCC 227 | agar diffusion / agar | 4000 µg/mL | 0 mm |
| C/C=C/C1=CC2=CC(=O)[C@](C)(OC(=O)c3c(OC)cc(O)c(O)c3C)C(=O)C2=CO1 | ATCC 64548 | agar diffusion | 25 µg/disc | 0 mm |
| CN(C)c1ccc(/C=N/n2c(C34CC5CC(CC(C5)C3)C4)n[nH]c2=S)cc1 | IFO 3007 | agar diffusion | 200 µg/disc | <10 mm |
| O=C(CN1C(=O)S/C(=C\c2c(Cl)cccc2Cl)C1=O)c1ccc2ccccc2c1 | ATCC 90028 | agar diffusion / agar | 5000 µg/mL | 18 mm |
| OC(Cn1cncn1)(Cn1cncn1)c1ccc(F)cc1F | ATCC 60193 | agar diffusion / agar | 12.5 µg/mL | 25 mm |
| Brc1ccc2c(c1)Sc1cccnc1N2CCCCCCN1c2ccc(Br)cc2Sc2cccnc21 | MTCC 227 | - | 100 µg/mL | 11 mm |
| NS(=O)(=O)c1ccc(-n2nc(-c3ccccc3)c3c(C(F)(F)F)cc(-c4ccc(-c5ccc6ccccc6c5)cc4)nc32)cc1 | MTCC 227 | agar diffusion / agar | 4000 µg/mL | 0 mm |
| CC1(C)CC(=O)C2=C(C1)OC1=C(C(=O)CC(C)(C)C1)C2c1cccc(C2C3=C(CC(C)(C)CC3=O)OC3=C2C(=O)CC(C)(C)C3)c1 | ATCC 10231 | agar diffusion | 140 µg/disc | 7 mm |
| CC(=O)N1CCN(c2ccc(OC[C@H]3CO[C@](Cn4ccnc4)(c4ccc(Cl)cc4Cl)O3)cc2)CC1 | MTCC 227 | agar diffusion | 5 mg/mL | 28 mm |
| CCC(C)n1ncn(-c2ccc(N3CCN(c4ccc(OC[C@H]5CO[C@](Cn6cncn6)(c6ccc(Cl)cc6Cl)O5)cc4)CC3)cc2)c1=O | ATCC 90028 | agar diffusion | 100 µg | 17 mm |
| S=c1[nH]nc(C23CC4CC(CC(C4)C2)C3)n1/N=C/c1c(Cl)cccc1Cl | IFO 3007 | agar diffusion | 200 µg/disc | <10 mm |
| COc1ccc(/C=C2\SC(=O)N(CC(=O)c3ccc(O)c(C(N)=O)c3)C2=O)cc1 | ATCC 90028 | agar diffusion / agar | 5000 µg/mL | 14 mm |
| O=[N+]([O-])c1ccc(/C=C/C(=NCCCn2ccnc2)c2ccccc2O)cc1 | - | agar diffusion | 100 µg/mL | 20 mm |
| Fc1ccc2c(c1)Sc1cccnc1N2CCCCN1c2ccc(F)cc2Sc2cccnc21 | MTCC 227 | - | 100 µg/mL | 10 mm |
| COc1ccc(/C=C2\SC(=O)N(CC(=O)c3ccccc3)C2=O)cc1 | ATCC 90028 | agar diffusion / agar | 5000 µg/mL | 18 mm |
| Clc1ccc2c(c1)Sc1cccnc1N2CCCCN1c2ccc(Cl)cc2Sc2cccnc21 | MTCC 227 | - | 100 µg/mL | 11 mm |
| O=C1CCCC2=C1C(c1ccc(C3C4=C(CCCC4=O)OC4=C3C(=O)CCC4)cc1)C1=C(CCCC1=O)O2 | ATCC 10231 | agar diffusion | 20 µg/disc | 7 mm |
| CCOC(=O)C1CCN(Cn2nc(C34CC5CC(CC(C5)C3)C4)n(/N=C/c3ccc(OC)cc3)c2=S)CC1 | IFO 3007 | agar diffusion | 200 µg/disc | <10 mm |
| COc1ccc(C2CC(=O)C3=C(C2)OC2=C(C(=O)CC(c4ccc(OC)c(OC)c4)C2)C3c2ccc(C3C4=C(CC(c5ccc(OC)c(OC)c5)CC4=O)OC4=C3C(=O)CC(c3ccc(OC)c(OC)c3)C4)cc2)cc1OC | ATCC 10231 | agar diffusion | 140 µg/disc | 7 mm |
| Brc1ccc2c(c1)Sc1cccnc1N2CCCCN1c2ccc(Br)cc2Sc2cccnc21 | MTCC 227 | - | 100 µg/mL | 11 mm |
| CC1(C)CCC2=C(C1=O)C(c1cccc(C3C4=C(CCC(C)(C)C4=O)OC4=C3C(=O)C(C)(C)CC4)c1)C1=C(CCC(C)(C)C1=O)O2 | ATCC 10231 | agar diffusion | 40 µg/disc | 9 mm |
| CC(=O)Nc1ccc(Cl)cc1Sc1ncccc1[N+](=O)[O-] | MTCC 227 | - | 100 µg/mL | 14 mm |
| CCOC(=O)C1CCN(Cn2nc(C34CC5CC(CC(C5)C3)C4)n(/N=C/c3cc(OC)c(OC)cc3[N+](=O)[O-])c2=S)CC1 | IFO 3007 | agar diffusion | 200 µg/disc | <10 mm |
| Oc1ccccc1C(/C=C/c1ccccc1)=NCCCn1ccnc1 | - | agar diffusion | 100 µg/mL | 17 mm |
| C(=C\CN1c2ccccc2Sc2cccnc21)/CN1c2ccccc2Sc2cccnc21 | MTCC 227 | - | 100 µg/mL | 12 mm |
| Cc1ccc(-c2nn(-c3ccc(S(N)(=O)=O)cc3)c3nc(-c4ccccc4)cc(C(F)(F)F)c23)cc1 | MTCC 227 | agar diffusion / agar | 4000 µg/mL | 0 mm |
| O=c1[nH]c(=S)[nH]c2nc(-c3ccccn3)c(-c3ccccn3)nc12 | - | - | 500 mg/mL | 20 mm |
| CC1(C)C=C2C3CCC4[C@@]5(C)CC[C@H](OC(=O)/C=C/c6ccc(O)cc6)C(C)(C)C5CC[C@@]4(C)[C@]3(C)CC[C@@]2(C)CC1 | UPCC 2168 | agar diffusion | 30 mg/disc | 12 mm |
| COc1ccc(C(=O)CN2C(=O)S/C(=C\c3c(Cl)cccc3Cl)C2=O)cc1 | ATCC 90028 | agar diffusion / agar | 5000 µg/mL | 18 mm |
| Cc1ccc(/C=C/C(=NCCCn2ccnc2)c2ccccc2O)cc1 | - | agar diffusion | 100 µg/mL | 17 mm |
| CC(=O)Nc1ccc(F)cc1Sc1ncccc1[N+](=O)[O-] | MTCC 227 | - | 100 µg/mL | 14 mm |
| S=c1[nH]nc(C23CC4CC(CC(C4)C2)C3)n1/N=C/c1ccc(Br)cc1 | IFO 3007 | agar diffusion | 200 µg/disc | 16 mm |
| O=c1[nH]c(=O)c2nc(-c3ccccn3)c(-c3ccccn3)nc2[nH]1 | - | - | 250 mg/mL | 20 mm |
| C[C@@H]1[C@H](O)[C@@H](C)/C=C/C=C/C=C/C=C/C=C/C=C/C=C/[C@H](O[C@@H]2O[C@H](C)[C@@H](O)[C@H](N)[C@@H]2O)C[C@@H]2O[C@](O)(C[C@@H](O)C[C@@H](O)[C@H](O)CC[C@@H](O)C[C@@H](O)CC(=O)O[C@H]1C)C[C@H](O)[C@H]2C(=O)O | - | agar diffusion / agar | 30 µg/disc | 19 mm |
| COc1ccc(/C=C2\SC(=O)N(CC(=O)c3ccc(C#N)cc3)C2=O)cc1 | ATCC 90028 | agar diffusion / agar | 5000 µg/mL | 14 mm |
| O=c1[nH]cnc2nc(-c3ccccn3)c(-c3ccccn3)nc12 | - | - | 250 mg/mL | 28 mm |
| Oc1ccccc1C(/C=C/c1ccccc1)=NCCCn1ccnc1.[Cl][Cu] | - | agar diffusion | 100 µg/mL | 20 mm |
| Cc1ccc(-c2cc(C(F)(F)F)c3c(-c4ccc(Cl)cc4)nn(-c4ccc(S(N)(=O)=O)cc4)c3n2)cc1 | MTCC 227 | agar diffusion / agar | 4000 µg/mL | 0 mm |

The last 3 rows once more:

| structure | strain or isolate | method | tested at | result |
|---|---|---|---|---|
| O=c1[nH]cnc2nc(-c3ccccn3)c(-c3ccccn3)nc12 | - | - | 250 mg/mL | 28 mm |
| Oc1ccccc1C(/C=C/c1ccccc1)=NCCCn1ccnc1.[Cl][Cu] | - | agar diffusion | 100 µg/mL | 20 mm |
| Cc1ccc(-c2cc(C(F)(F)F)c3c(-c4ccc(Cl)cc4)nn(-c4ccc(S(N)(=O)=O)cc4)c3n2)cc1 | MTCC 227 | agar diffusion / agar | 4000 µg/mL | 0 mm |